The assay addresses A/Aichi/2/1968 virus (hemagglutinin) (influenza virus A/Aichi/2/1968 (H3N2)).

Substance “sera of mice given F147 formulation buffer (Aichi series) (polyclonal serum or antibody)” displayed a GMT (HAI titers) of 2.5 GMT.

The values are drawn from patent US20140235836A1, “Immunologic Constructs and Methods” (published 2014).
